{"source": "PubChem BioAssay AID1259414 (Drosophila RNAi Screening Center, 2018)", "aim": "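Host factors increasing or decreasing Wolbachia levels in cultured fly cells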 (primary screen)", "cell system": "Drosophila JW18 cells infected with Wolbachia", "knock-down reagent": "long dsRNA against Drosophila genes, 0.25 µg dsRNA per well of a 384-well plate", "timing": "5 days", "conditions": "cells persistently infected with Wolbachia before knock-down; no added drug", "measurement": "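Automated imaging of bacterial rRNA staining divided by host cell count, reported as plate-normalised robust z-score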", "scale": "Wolbachia per cell robust z: higher = more Wolbachia per host cell than the plate typical", "rule for the call": "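Hit when robust z is 1.5 or more, or -1.5 or less, in at least two of three replicates; excludes dsRNAs with several or no targets, genes not expressed in JW18 and well A1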", "note": "In all, the deposit lists about 24,000 reagents; this is a random part of those that have a named target and a result. Over the whole deposit, about 1,210 (5%) are marked active. 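Inactive calls also include excluded dsRNAs with several or no targets, genes unexpressed in JW18, and well A1, regardless of score.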"}
{"target gene":"cup","DRSC id":"DRSC03516","Wolbachia per cell robust z, rep 1":-0.538,"Wolbachia per cell robust z, rep 2":1.78,"Wolbachia per cell robust z, rep 3":1.62,"outcome":"inactive"}
{"target gene":"cup","DRSC id":"DRSC24610","Wolbachia per cell robust z, rep 1":0.487,"Wolbachia per cell robust z, rep 2":0.509,"Wolbachia per cell robust z, rep 3":-0.4,"outcome":"inactive"}
{"target gene":"LManVI","DRSC id":"DRSC03224","Wolbachia per cell robust z, rep 1":0.696,"Wolbachia per cell robust z, rep 2":-0.931,"Wolbachia per cell robust z, rep 3":0.726,"outcome":"inactive"}
{"target gene":"LManVI","DRSC id":"DRSC27521","Wolbachia per cell robust z, rep 1":-3.92,"Wolbachia per cell robust z, rep 2":-0.463,"Wolbachia per cell robust z, rep 3":0.0253,"outcome":"inactive"}
{"target gene":"Apc","DRSC id":"DRSC14114","Wolbachia per cell robust z, rep 1":0.297,"Wolbachia per cell robust z, rep 2":-2.34,"Wolbachia per cell robust z, rep 3":-0.441,"outcome":"inactive"}
{"target gene":"CG9173","DRSC id":"DRSC08635","Wolbachia per cell robust z, rep 1":-0.827,"Wolbachia per cell robust z, rep 2":-0.927,"Wolbachia per cell robust z, rep 3":-0.455,"outcome":"inactive"}
{"target gene":"CG12862","DRSC id":"DRSC06202","Wolbachia per cell robust z, rep 1":0.251,"Wolbachia per cell robust z, rep 2":-0.673,"Wolbachia per cell robust z, rep 3":0.471,"outcome":"inactive"}
{"target gene":"Suv3","DRSC id":"DRSC12335","Wolbachia per cell robust z, rep 1":-0.0757,"Wolbachia per cell robust z, rep 2":-0.515,"Wolbachia per cell robust z, rep 3":-0.278,"outcome":"inactive"}
{"target gene":"Sfp24Bc","DRSC id":"DRSC41418","Wolbachia per cell robust z, rep 1":-0.483,"Wolbachia per cell robust z, rep 2":-0.0319,"Wolbachia per cell robust z, rep 3":0.478,"outcome":"inactive"}
{"target gene":"Xpac","DRSC id":"DRSC18730","Wolbachia per cell robust z, rep 1":-0.985,"Wolbachia per cell robust z, rep 2":-0.733,"Wolbachia per cell robust z, rep 3":-1.16,"outcome":"inactive"}
{"target gene":"Xpac","DRSC id":"DRSC25963","Wolbachia per cell robust z, rep 1":-0.0757,"Wolbachia per cell robust z, rep 2":-0.71,"Wolbachia per cell robust z, rep 3":0.321,"outcome":"inactive"}
{"target gene":"CG14427","DRSC id":"DRSC17921","Wolbachia per cell robust z, rep 1":0.566,"Wolbachia per cell robust z, rep 2":-0.36,"Wolbachia per cell robust z, rep 3":0.497,"outcome":"inactive"}
{"target gene":"CG14427","DRSC id":"DRSC29421","Wolbachia per cell robust z, rep 1":-2.59,"Wolbachia per cell robust z, rep 2":-0.397,"Wolbachia per cell robust z, rep 3":-0.934,"outcome":"inactive"}
{"target gene":"CG30428","DRSC id":"DRSC04041","Wolbachia per cell robust z, rep 1":-0.713,"Wolbachia per cell robust z, rep 2":0.902,"Wolbachia per cell robust z, rep 3":-0.348,"outcome":"inactive"}
{"target gene":"CG30428","DRSC id":"DRSC28228","Wolbachia per cell robust z, rep 1":1.34,"Wolbachia per cell robust z, rep 2":0.999,"Wolbachia per cell robust z, rep 3":0.205,"outcome":"inactive"}
{"target gene":"CG9380","DRSC id":"DRSC04549","Wolbachia per cell robust z, rep 1":0.218,"Wolbachia per cell robust z, rep 2":-1.05,"Wolbachia per cell robust z, rep 3":-0.026,"outcome":"inactive"}
{"target gene":"Act79B","DRSC id":"DRSC11604","Wolbachia per cell robust z, rep 1":2.85,"Wolbachia per cell robust z, rep 2":2.86,"Wolbachia per cell robust z, rep 3":2.88,"outcome":"inactive"}
{"target gene":"Act79B","DRSC id":"DRSC25023","Wolbachia per cell robust z, rep 1":1.27,"Wolbachia per cell robust z, rep 2":-7.14,"Wolbachia per cell robust z, rep 3":-0.367,"outcome":"inactive"}
{"target gene":"wa-cup","DRSC id":"DRSC12511","Wolbachia per cell robust z, rep 1":-0.151,"Wolbachia per cell robust z, rep 2":-3.34,"Wolbachia per cell robust z, rep 3":-1.13,"outcome":"inactive"}
{"target gene":"fd19B","DRSC id":"DRSC20688","Wolbachia per cell robust z, rep 1":-0.269,"Wolbachia per cell robust z, rep 2":-1.82,"Wolbachia per cell robust z, rep 3":-0.789,"outcome":"inactive"}
{"target gene":"fd19B","DRSC id":"DRSC26447","Wolbachia per cell robust z, rep 1":0.194,"Wolbachia per cell robust z, rep 2":-1.12,"Wolbachia per cell robust z, rep 3":0.000801,"outcome":"inactive"}
{"target gene":"Mtr3","DRSC id":"DRSC10953","Wolbachia per cell robust z, rep 1":0.267,"Wolbachia per cell robust z, rep 2":-0.384,"Wolbachia per cell robust z, rep 3":0.0543,"outcome":"inactive"}
{"target gene":"Mtr3","DRSC id":"DRSC26956","Wolbachia per cell robust z, rep 1":0.428,"Wolbachia per cell robust z, rep 2":2.66,"Wolbachia per cell robust z, rep 3":1.32,"outcome":"inactive"}
{"target gene":"Ocrl","DRSC id":"DRSC18576","Wolbachia per cell robust z, rep 1":1.14,"Wolbachia per cell robust z, rep 2":1.32,"Wolbachia per cell robust z, rep 3":1.34,"outcome":"inactive"}

A run of entries taken from the entries so far:
{"target gene":"Xpac","DRSC id":"DRSC18730","Wolbachia per cell robust z, rep 1":-0.985,"Wolbachia per cell robust z, rep 2":-0.733,"Wolbachia per cell robust z, rep 3":-1.16,"outcome":"inactive"}
{"target gene":"Xpac","DRSC id":"DRSC25963","Wolbachia per cell robust z, rep 1":-0.0757,"Wolbachia per cell robust z, rep 2":-0.71,"Wolbachia per cell robust z, rep 3":0.321,"outcome":"inactive"}
